{"sequences": {"note": "The chains behind the UniProt entries cited, without tags or fusion partners. Where a name states a change or a piece, a line headed by the entry shows the natural chain unless it says otherwise. Residues count along the entry.", "UniProt P26368, 2-475": "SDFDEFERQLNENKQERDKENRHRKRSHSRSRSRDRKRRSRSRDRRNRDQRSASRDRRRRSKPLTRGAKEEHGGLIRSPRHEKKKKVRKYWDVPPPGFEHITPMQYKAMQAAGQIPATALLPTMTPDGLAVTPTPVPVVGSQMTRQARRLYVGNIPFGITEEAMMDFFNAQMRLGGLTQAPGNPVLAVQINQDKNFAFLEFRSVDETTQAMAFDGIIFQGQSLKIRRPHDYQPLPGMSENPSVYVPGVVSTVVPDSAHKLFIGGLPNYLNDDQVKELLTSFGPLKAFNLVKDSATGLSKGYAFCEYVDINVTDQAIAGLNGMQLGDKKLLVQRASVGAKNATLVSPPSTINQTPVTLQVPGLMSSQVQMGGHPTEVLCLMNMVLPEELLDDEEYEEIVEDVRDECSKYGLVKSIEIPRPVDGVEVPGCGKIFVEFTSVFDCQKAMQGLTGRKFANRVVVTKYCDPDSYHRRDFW", "UniProt P26599": "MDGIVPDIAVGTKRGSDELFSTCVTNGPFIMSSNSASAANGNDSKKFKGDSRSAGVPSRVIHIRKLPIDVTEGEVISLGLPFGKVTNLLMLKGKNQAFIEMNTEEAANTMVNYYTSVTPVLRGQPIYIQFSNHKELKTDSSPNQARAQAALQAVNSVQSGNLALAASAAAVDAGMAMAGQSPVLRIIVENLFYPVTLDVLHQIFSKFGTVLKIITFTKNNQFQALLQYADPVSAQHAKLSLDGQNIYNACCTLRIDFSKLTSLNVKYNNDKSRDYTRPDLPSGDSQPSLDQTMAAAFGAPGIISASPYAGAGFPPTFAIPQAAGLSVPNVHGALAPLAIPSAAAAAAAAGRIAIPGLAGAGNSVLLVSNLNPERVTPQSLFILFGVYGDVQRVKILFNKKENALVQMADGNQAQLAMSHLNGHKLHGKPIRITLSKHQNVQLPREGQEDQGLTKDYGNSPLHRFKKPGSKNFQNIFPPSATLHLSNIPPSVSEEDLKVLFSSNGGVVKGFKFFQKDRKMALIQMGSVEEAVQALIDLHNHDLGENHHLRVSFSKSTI"}, "source": "patent US20240263180", "key": {"[1]": {"target": "U2AF65 (endogenous, RNA ChIP) (UniProt P26368)", "assay": "binding assay", "settings": "HEK 293T transfected, also infected MRC-5, protein in cells"}, "[2]": {"target": "PTB (endogenous, RNA ChIP) (UniProt P26599)", "assay": "binding assay", "settings": "HEK 293T transfected, also infected MRC-5, protein in cells"}}, "note": "The exact form of at least one protein or probe is not confirmed. Results from cells or extracts need not show a direct contact."}
{"sequence": "CACGCCUGUGAAACCGUACUAAGUCUCCCGUGUCUUCUUAUCACCAUCAG [MIE intron 4 RNA in cells (pSVH)]", "values": [{"measurement": "binding result", "setting": "[1]", "value": "binds"}, {"measurement": "binding result", "setting": "[2]", "value": "binds"}]}
